Assay results: US20080057492A1, “Interacting site for gp41 on gp120 of hiv-1” (priority 2002, published 2008)

Target: MN-P envelope glycoprotein (neutralization resistant primary clone of the HIV-1 MN strain) (HIV-1 MN strain) (UniProt P05877)
Assay: cell-based or functional assay

Question: With “soluble CD4 (from UniProt P01730 26-396) (receptor)” as the substance, how does the neutralization by sCD4 read?
Answer: Its neutralization by sCD4 is greater than 1 µg/mL.

Question: And the resistance to sCD4 neutralization relative to MN-TCLA?
Answer: Its resistance to sCD4 neutralization relative to MN-TCLA is greater than 50 fold.

Question: What about the sCD4-induced release of gp120 from virions of the same substance?
Answer: The sCD4-induced release of gp120 from virions was greater than 3 fold.
